Percent effect of library compounds

The values are deposited in ChEMBL (CHEMBL3988442, “University of Dundee, Small-Polar-MMV Screening Library” (2021)).

Mtb glucose medium: 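Growth of Mycobacterium tuberculosis over 3 days (7H9 medium with glucose and tyloxapol); the read-out is not stated. Tested at 50 µM. The record gives no direction; compounds that gave an IC50 in retests scored well above the rest, so higher reads as more growth inhibition. Of about 69,000 compounds tested this way, about 760 (1.1%) reached 50% or more in at least one test.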
Mtb cholesterol medium: 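Growth of Mycobacterium tuberculosis over 4 days (cholesterol / DPPC medium with tyloxapol); the read-out is not stated. Concentration: 50 µM. The record gives no direction; compounds that gave an IC50 in retests scored well above the rest, so higher reads as more growth inhibition. Of about 69,000 compounds tested this way, about 370 (0.54%) reached 50% or more in at least one test.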

Values are the deposited “Percent Effect”, in %.
The controls that fix the scale are not given in the record; negative values are as filed.
Many other results are left out here, so strong results are more common than in the screen.
Two or more numbers in one place are separate tests of the same structure; such repeats can differ widely.
A dash means the value is not listed here; it may have been measured.

| # | Compound | Mtb glucose medium | Mtb cholesterol medium |
|---|---|---|---|
| 1 | `COCCOCCSc1nnc(Cc2ccccc2F)o1` | 20.24% | 15.04% and 41.4% |
| 2 | `CNS(=O)(=O)Cc1ccccc1CNc1ccc(C#N)cn1` | - | -45.11% |
| 3 | `CCN(C)c1ccc(CNC(=O)c2cc(C(N)=O)cs2)cc1F` | 5.599% | -7.627% |
| 4 | `CCCc1nc(C)cc(N2CCC3(CCC(=O)N(CCOC)C3)CC2)n1` | 15.24% | - |
| 5 | `CN1CCc2nc(C3CCCCN3Cc3ccccc3Cl)ncc2C1` (centres undefined) | 5.121% | - |
| 6 | `c1ccc2c(c1)CCN(c1nc(-c3ccncc3)nc3c1CCNC3)C2` | 63.42% | 50.62% and 57.73% |
| 7 | `COCc1nn(Cc2ccc(Br)s2)c(=O)o1` | 53.29% | 42.45% |
| 8 | `COc1cccc(CNc2cnn(C)c(=O)c2Cl)c1` | - | -20.04% |
| 9 | `CCc1cc2cc(OC)c(OC)cc2nc1SCCN1CCCCC1.Cl` | 21.56% | - |
| 10 | `O=C(O)C(F)(F)F.O=C(c1c[nH]cn1)N1CCC(F)(F)C2(CCN(c3cccc(F)c3)C2)C1` (centres undefined) | 63.92% and 8.045% | - |
| 11 | `Cc1nnc(-c2ccc(C(=O)Nc3ccnc(N(C)C)n3)cc2)o1` | - | -18.64% |
| 12 | `COc1ccc2cc(C(=O)NCCc3nc(C)no3)[nH]c2c1` | -4.268% | - |
| 13 | `Cc1nc2ccccc2c(=O)n1CCC(=O)N1CCCC1` | 8.497% | - |
| 14 | `Cc1cc(C)nc(N2Cc3cnn(Cc4ccc(F)cc4)c3C2)n1` | -0.9694% | -23.97% |
| 15 | `CCN1CCC(CNCc2cc(OC)ccc2OC)C1` (centres undefined) | - | -14.6% and -0.5244% |
| 16 | `Cc1ccc(-c2noc(C(C)NS(C)(=O)=O)n2)cc1` (centres undefined) | -32.8% | -31.4% |
| 17 | `NC(=O)c1cnc(NC2CCN(c3ccccc3)CC2)c(Cl)c1` | 14.98% and 2.085% | -3.351% |
| 18 | `Cc1cnn(C2CCCN(C(=O)Cc3ccc(-n4cccn4)cc3)C2)c1` (centres undefined) | - | 2.191% |
| 19 | `CNS(=O)(=O)c1cccc(C(C)NCc2ccc(F)c(F)c2)c1` (centres undefined) | -6.634% and -2.316% | - |
| 20 | `Cc1cnn(-c2cccc(N3CCN(c4cc(C)nc(C)n4)CC3)n2)c1` | - | 53.22% |
| 21 | `O=C(c1cc(C2CC2)[nH]n1)N1CCN(Cc2ccc(Cl)cc2)CC1` | -0.5851% and 3.492% | -17.09% |
| 22 | `COCCN(Cc1c(C)nn(C)c1C)C(=O)C1COc2ccccc2C1` (centres undefined) | - | 2.773% and 1.64% |
| 23 | `O=C(CNc1cccc(CC(F)(F)F)c1)NCc1ccco1` | 19.75% | 29.11% |
| 24 | `Cc1cccc(NC2CCN(C(=O)Nc3cc(F)cc(F)c3)CC2)n1` | 32.84% | - |
| 25 | `C[C@@H]1CN(c2nc3c(cc2C(N)=O)CCC3)CC[C@@]1(O)C1CCC1` | 55.04% and 15.83% | - |
| 26 | `CCCc1nc(C)cc(N2CCC3(CCC(=O)N(CCCO)C3)CC2)n1` | 0.289% and -4.886% | - |
| 27 | `COc1cccc(-c2cc(C(=O)NCCCn3cnnc3)[nH]n2)c1` | 3.585% | - |
| 28 | `O=C(NCc1ccc(-n2cncn2)nc1)c1cc[nH]n1` | -20.34% | 5.68% |
| 29 | `Cc1nnc(CN(Cc2ccccc2C(F)(F)F)C2CC2)o1` | 22.6% and 10.5% | - |
| 30 | `O=C(c1cc2c([nH]c1=O)CCC2)N1CCCC1c1cccnc1` (centres undefined) | - | -9.177% |
| 31 | `N#Cc1ccc(N2CCC(OCCc3ccccc3)CC2)nc1` | 52.02% | - |
| 32 | `CCc1nnc2n1CCN(CC(=O)Nc1sccc1C#N)C2` | 0.4331% | - |
| 33 | `NC(=O)c1nnn(-c2ccc(Br)cc2)n1` | 16.02% | - |
| 34 | `O=C(c1cc(C2CC2)[nH]n1)N1CCN(Cc2ccncc2)CC1` | -17.64% and -2.127% | 9.565% |
| 35 | `CCC1c2ccsc2CCN1C(=O)NCc1cc(C)on1` (centres undefined) | -17.95% | 0.4834% |
| 36 | `O=C(C1CCC1)N1CCC2(CCN(Cc3cccc(F)c3)CC2)CC1.O=C(O)C(F)(F)F` | -5.331% and -40.93% | -8.465% |
| 37 | `Cc1cccc(C2(O)CCN(Cc3ccccc3N3CCCC3)CC2)c1` | 86.81% | 83.21% |
| 38 | `CC(C)Cc1cc(NC(=O)c2ccccc2F)n(C)n1` | 43.39% | 27.74% |
| 39 | `COc1ccc(CN2CC[C@@H](O)[C@@H]2Cc2cnn(C)c2)cc1.O=C(O)C(F)(F)F` | - | 50.12% and 42.33% |
| 40 | `FC(F)(F)c1ccc2nc([C@H]3CCN(C4CCOCC4)C3)[nH]c2c1` | 10.14% and 7.513% | 19.74% |
| 41 | `Cc1nc(CNC(=O)Nc2ccc3c(c2)CCCC(=O)N3)sc1C` | - | 7.556% |
| 42 | `CCS(=O)(=O)N1CCC(c2nnc(CN3CCOCC3)n2C)CC1` | - | 2.389% |

Some entries from above, unchanged:

{"compound": "CCc1nnc2n1CCN(CC(=O)Nc1sccc1C#N)C2", "Mtb glucose medium": 0.4331}
{"compound": "CN1CCc2nc(C3CCCCN3Cc3ccccc3Cl)ncc2C1", "stereo": "centres undefined", "Mtb glucose medium": 5.121}
{"compound": "O=C(C1CCC1)N1CCC2(CCN(Cc3cccc(F)c3)CC2)CC1.O=C(O)C(F)(F)F", "Mtb glucose medium": "-5.331 and -40.93", "Mtb cholesterol medium": -8.465}
{"compound": "CCCc1nc(C)cc(N2CCC3(CCC(=O)N(CCOC)C3)CC2)n1", "Mtb glucose medium": 15.24}
{"compound": "Cc1cnn(-c2cccc(N3CCN(c4cc(C)nc(C)n4)CC3)n2)c1", "Mtb cholesterol medium": 53.22}